This is a selection; strong and weak results do not stand in their true shares. Activity calls are given as the source filed them.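 Rule for the calls: active = inhibition of at least 50% in every replicate; inconclusive = best replicate reaches 50% inhibition but some replicates fall short; inactive = the rest.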
These molecules were tested against Histone acetyltransferase RTT109 (Candida albicans (strain SC5314 / ATCC MYA-2876)) (UniProt Q5AAJ8) (assay: Rtt109-Vps75 histone acetyltransferase blockade – biochemical, ThioGlo CoA-SH fluorescence, plate reader, primary screen (AID 540336)). Conditions: purified Rtt109/Vps75, ThioGlo CoA-SH fluorescence, 4 h; at 34.9 µM; active compounds read high.

Protein sequences, listed by entry. Tags and fused reporters are not part of them.
UniProt Q5AAJ8, whole entry, looked up: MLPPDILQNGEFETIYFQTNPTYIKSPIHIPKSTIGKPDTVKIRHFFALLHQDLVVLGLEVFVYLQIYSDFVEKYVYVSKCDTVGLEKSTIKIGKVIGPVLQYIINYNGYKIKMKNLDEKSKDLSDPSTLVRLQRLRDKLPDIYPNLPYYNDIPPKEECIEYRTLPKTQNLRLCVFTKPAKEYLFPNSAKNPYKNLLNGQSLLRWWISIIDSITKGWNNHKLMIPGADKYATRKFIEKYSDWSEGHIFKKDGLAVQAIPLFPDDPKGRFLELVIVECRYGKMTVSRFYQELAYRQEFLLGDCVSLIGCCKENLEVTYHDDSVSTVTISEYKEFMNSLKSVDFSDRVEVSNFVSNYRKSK

SMILES | inhibition
CN(C)C(=O)OCCc1n(C)cc[n+]1C | inactive: -4.47%
CC(C)=N/N=C(\N)N[N+](=O)[O-] | inactive: -4.58%
CC1CCN(C(=O)Oc2c(Cl)cc(Cl)c3cccnc23)CC1 | inactive: -3.96%
C[N+]1=C2C=CC=CC=C2SC12C([N+](=O)[O-])=CC([N+](=O)[O-])=C[C-]2[N+](=O)[O-] (centres undefined) | inactive: -3.02%
Nc1ccc([As](=O)(O)c2ccc(N)cc2)cc1 | inactive: 7.34%
CCN(/C(=N/P(=O)(N1CCOCC1)N1CCOCC1)N1CCOCC1)c1ccc(OC)cc1 | inactive: -5.34%
CC(=O)N1C2C3N(C(C)=O)C1C1N(C(C)=O)C(C(N1C(C)=O)N3C(C)=O)N2C(C)=O | inactive: 0.958%
O=[N+]([O-])c1cccc2n[nH]nc12 | inactive: -3.68%
O=[N+]([O-])c1cc([N+](=O)[O-])c(CCNc2ccccc2)c([N+](=O)[O-])c1 | inactive: 2.21%
CCc1nc2c(n1)c1c(non1O)c1c2no[n+]1[O-] | inactive: -4.89%
Cc1ccc(NP(=O)(Oc2ccccc2)Oc2ccccc2)nc1 | inactive: -7.41%
COc1ccc(C2=NCC(CBr)S2)cc1 (centres undefined) | inactive: -3.08%
O=[N+]([O-])c1cccc(NC2=NCC(CBr)S2)c1 (centres undefined) | inactive: 48.9%
COC(=O)C1(C)COP(=O)(Nc2ccccc2)OC1 (centres undefined) | inactive: -2.47%
O=C(O)CNc1ccc([As](=O)(O)O)cc1 | inactive: -1.78%
CC(C)(C)C(=O)NC(Sc1ccncn1)C(Cl)(Cl)Cl (centres undefined) | inactive: -1.28%
O=C(Nc1cc([As](=O)(O)O)ccc1O)c1ccccc1 | inactive: 9.86%
O=P1(N(CCCl)CCCl)OCCCS1 (centres undefined) | inactive: -8.45%
CCN(N=Nc1nonc1N)c1nonc1N | inactive: 1.88%
Nc1cccc2ccc([As](=O)(O)O)cc12 | inactive: 1.83%
CN(C(=O)Cc1ccc(Cl)c(Cl)c1)[C@H]1CCCC[C@@H]1N1CCCC1 | inactive: 2.11%
Cc1ccc(NP(=O)(Oc2ccccc2F)Oc2ccccc2F)nc1 | inactive: 1.3%
CCOP(=O)(Nc1ccccc1)OCC | inactive: -0.242%
Cc1cc(SC(NC(=O)c2ccc(F)cc2)C(Cl)(Cl)Cl)ncn1 (centres undefined) | inactive: -8.94%
CCCC1OP(N)(=O)OCC1CC (centres undefined) | inactive: 2.84%
O=C(O)c1ccccc1[As](=O)(O)O | inactive: 3.44%
CC(=O)Nc1ccc([As](=O)(O)O)cc1 | inactive: -1.19%
O=P(Nc1nc2ccc(Cl)cc2s1)(c1ccccc1)c1ccccc1 | inactive: 3.25%
CC(C)CC(=O)NC(Sc1ccc(Cl)cc1)C(Cl)(Cl)Cl (centres undefined) | inactive: -1.82%
